Measured values from several laboratories, pooled; numbers as filed in NIAID ChemDB.

Common to all: tests in culture; agent: Rhinovirus; cell line: HeLa; measure: EC50

Neighbouring rows are from separate reports. ECn: concentration that inhibits the pathogen or its effect by n%.

COc1ccc(Cc2coc3ccccc3c2=O)cc1 ; strain: TYPE 1B ; method: plaque count ; result: 7.86 µM
CCOc1cc(OC)ccc1-c1cc(N(CC)CC)no1 ; strain: Serotype 59 (group B) ; method: cytopathic effect ; result: 25.8 µM
Cc1cc(OCCCc2ccc(C(F)F)nn2)cc(C)c1-c1noc(C(F)F)n1 ; strain: serotypes 3 4 5 9 16 18 38 66 75 67 ; method: cytopathic effect ; result: 0.1 µg/mL
COc1cc(/C=C/C(=O)Oc2c(-c3ccc(Cl)cc3)oc3ccccc3c2=O)ccc1O ; strain: Serotype 1B ; method: plaque count ; result: 3.6 µM
Cc1ccc(C(=O)CCCCCCOc2ccc(C3=N[C@H](C)CO3)cc2)s1 ; strain: TYPE 2 ; method: cytopathic effect ; result: >16.1 µM
O=C(/C=C/c1ccc(O)c(O)c1)Oc1c(-c2ccc(Cl)cc2)oc2ccccc2c1=O ; strain: Serotype 14 ; method: plaque count ; result: >6.25 µM
CC(=O)c1ccoc1CCCOc1c(C)cc(-c2noc(C)n2)cc1C ; strain: 15 serotype mixtures ; method: cytopathic effect ; result: <1.9 µM
CS(=O)(=O)c1ccc(NCc2ccc(Cl)cc2)nc1 ; strain: TYPE 2 ; method: cytopathic effect ; result: 3.1 µg/mL
c1ccc(C2CCc3cc(C4=NCCO4)ccc3O2)cc1 ; strain: TYPE 1B ; method: cytopathic effect ; result: 40 µM
N=C(N)c1ccc(C2CCc3cc(C(=N)N)ccc3O2)cc1 ; strain: Serotype 1B ; method: plaque count ; result: 22.4 µM
CCOC(=O)c1ccc(OCCC2CCN(c3ccc(C)nn3)CC2)cc1 ; strain: Serotype 59 ; method: cytopathic effect ; result: <0.1 µg/mL
N=C(N)c1ccc(C2CCc3ccccc3O2)cc1 ; strain: Serotype 1B ; method: cytopathic effect ; result: 8 µM
CS(=O)c1ccc(Cc2ccc(S(C)(=O)=O)cn2)cc1 ; strain: TYPE 2 ; method: cytopathic effect ; result: >10 µg/mL
Cc1cc(OCCCc2ccc(Cl)nn2)cc(C)c1-c1noc(C(F)F)n1 ; strain: serotypes 3 4 5 9 16 18 38 66 75 67 ; method: cytopathic effect ; result: 0.02 µg/mL
Cc1ccc(C(=O)CCCCCCOc2ccc(C3=NCC(C)O3)cc2)s1 ; strain: TYPE 14 ; method: cytopathic effect ; result: 1.55 µM
CC(C)S(=O)(=O)n1c(N)nc2ccc(C(C(N)=O)c3cccc(F)c3)cc21 ; strain: 1059 (serotype 14) ; method: plaque count ; result: 0.04 µg/mL
COc1ccc(-c2cc(N3CCCC3)no2)c(O)c1 ; strain: Serotype 89 (group B) ; method: cytopathic effect ; result: 45.2 µM
CSc1ccc(Cc2ccc(S(C)(=O)=O)cn2)cc1 ; strain: TYPE 1A ; method: cytopathic effect ; result: 5 µg/mL
CS(=O)(=O)c1ccc(Oc2ccc(C(=O)c3ccccc3)cc2)nc1 ; strain: TYPE 5 ; method: cytopathic effect ; result: 10 µg/mL
Clc1ccc(C2CCc3ccccc3O2)c(Cl)c1 ; strain: TYPE 1B ; method: plaque count ; result: 0.025 µM
COc1ccc(OCCCCCCn2ccnc2)c(Cl)c1 ; strain: TYPE 61 ; method: plaque count ; result: 29.1 µM
CCN(CC)c1cc(-c2ccc(OC)cc2OC)on1 ; strain: Serotype 70 (group A) ; method: cytopathic effect ; result: >362 µM
Cc1ccc(C(=O)CCCCCCOc2ccc(C3=N[C@@H](C)CO3)cc2)s1 ; strain: TYPE 2 ; method: cytopathic effect ; result: 1.03 µM
COCc1ccc(CCCOc2cc(C)c(-c3noc(C(F)(F)F)n3)c(C)c2)nn1 ; strain: serotypes 3 4 5 9 16 18 38 66 75 67 ; method: cytopathic effect ; result: 0.1 µg/mL
Cc1cc(CCCCCCCOc2ccc(C3=NCCO3)cc2)on1 ; strain: TYPE 14 ; method: cytopathic effect ; result: 1.76 µM
Cc1cc(CCCCCOc2c(Cl)cc(C3=NCCO3)cc2Cl)on1 ; strain: TYPE 44 ; method: plaque count ; result: 0.055 µg/mL
O=C1c2ccccc2OCC1Cc1ccccc1 ; strain: TYPE 14 ; method: plaque count ; result: >50 µM
Cc1ccc(C(=O)CCCCCCOc2ccc(C3=NCCO3)cc2)s1 ; strain: TYPE 14 ; method: cytopathic effect ; result: 1.34 µM
CC(C)S(=O)(=O)n1c(N)nc2ccc(C(C(N)=O)c3c(F)c(F)cc(F)c3F)cc21 ; strain: 1059 (serotype 14) ; method: plaque count ; result: 0.05 µg/mL
CCOc1ccc(-c2cc(N(CC)CC)no2)c(O)c1 ; strain: Serotype 14 ; method: cytopathic effect ; result: >362 µM
CNC(=O)C(c1ccc2nc(N)n(S(=O)(=O)C(C)C)c2c1)c1ccc(F)c(F)c1F ; strain: 1059 (serotype 14) ; method: plaque count ; result: 0.01 µg/mL
N#Cc1ccc2c(c1)CC(c1ccccc1)CO2 ; strain: Serotype 1B ; method: cytopathic effect ; result: >8 µM
N#Cc1ccc2c(c1)CCC(c1ccc(Cl)cc1)O2 ; strain: TYPE 1B ; method: cytopathic effect ; result: 0.03 µM
CNC(=O)C(c1cccc(F)c1)c1ccc2nc(N)n(S(=O)(=O)N3CCCC3)c2c1 ; strain: 1059 (serotype 14) ; method: plaque count ; result: 0.02 µg/mL
c1ccc2c(c1)CCC(c1ccc(C3=NCCO3)cc1)O2 ; strain: TYPE 1B ; method: cytopathic effect ; result: 3.58 µM
CS(=O)(=O)c1ccc(Cc2ccc(Cl)c(Cl)c2)nc1 ; strain: TYPE 10 ; method: cytopathic effect ; result: 2.5 µg/mL
N#Cc1ccc(C2CCc3cc(C#N)ccc3O2)cc1 ; strain: Serotype 1B ; method: plaque count ; result: 0.023 µM
N#Cc1ccc2c(c1)CCC(c1ccccc1)O2 ; strain: TYPE 1B ; method: cytopathic effect ; result: 8 µM
CC(=O)c1c(-c2ccc(Cl)cc2)oc2ccccc2c1=O ; strain: Serotype 1B ; method: plaque count ; result: 1.36 µM
CC(C)S(=O)(=O)n1c(N)nc2ccc(C(C(N)=O)c3cc(F)cc(F)c3)cc21 ; strain: 1059 (serotype 14) ; method: plaque count ; result: 0.06 µg/mL
CC(=O)c1cc(CCCOc2c(C)cc(-c3noc(C)n3)cc2C)co1 ; strain: 15 serotype mixtures ; method: cytopathic effect ; result: <0.3 µM
COc1cc(/C=C/C(=O)Oc2c(-c3ccc(Cl)c(Cl)c3)oc3ccccc3c2=O)ccc1O ; strain: Serotype 14 ; method: plaque count ; result: >1.56 µM
O=C1c2c(Cl)cc(Cl)cc2OCC1Cc1ccc(Cl)cc1 ; strain: TYPE 1B ; method: plaque count ; result: 3.7 µM
CC(C)S(=O)(=O)n1c(N)nc2ccc(C(C(N)=O)c3cccc(F)c3F)cc21 ; strain: 1059 (serotype 14) ; method: plaque count ; result: 0.01 µg/mL
CC(=O)Oc1ccc(/C=C/C(=O)Oc2c(-c3ccc(Cl)cc3)oc3ccccc3c2=O)cc1OC(C)=O ; strain: Serotype 1B ; method: plaque count ; result: >0.39 µM
N=C(N)c1ccc(C2=Cc3cc(C(=N)N)ccc3OC2)cc1 ; strain: Serotype 1B ; method: cytopathic effect ; result: >40 µM
O=c1c(Cc2ccc(O)cc2)coc2ccccc12 ; strain: TYPE 14 ; method: plaque count ; result: 16.2 µM
CS(=O)(=O)c1ccc(NCc2ccc(Cl)c(Cl)c2)nc1 ; strain: TYPE 4 ; method: cytopathic effect ; result: >10 µg/mL
CCSc1ccc(Oc2ccc(C(=O)c3ccccc3)cc2)nc1C#N ; strain: TYPE 1A ; method: cytopathic effect ; result: >10 µg/mL
Cc1ccc(C(=O)CCCCOc2ccc(C3=N[C@H](C)CO3)cc2)s1 ; strain: TYPE 14 ; method: cytopathic effect ; result: 1.96 µM
C#CCOc1cc(OC)ccc1-c1cc(N(CC)CC)no1 ; strain: Serotype 29 (group B) ; method: cytopathic effect ; result: >40 µM
COc1ccc(CC2COc3cc(OC)cc(OC)c3C2=O)cc1 ; strain: TYPE 1B ; method: plaque count ; result: >6.25 µM
CCC1COC(c2ccc(OCCCCCCC(=O)c3ccc(C)s3)cc2)=N1 ; strain: TYPE 2 ; method: cytopathic effect ; result: 1.25 µM

Repeating the first 4 entries:

structure | strain | method | result
COc1ccc(Cc2coc3ccccc3c2=O)cc1 | TYPE 1B | plaque count | 7.86 µM
CCOc1cc(OC)ccc1-c1cc(N(CC)CC)no1 | Serotype 59 (group B) | cytopathic effect | 25.8 µM
Cc1cc(OCCCc2ccc(C(F)F)nn2)cc(C)c1-c1noc(C(F)F)n1 | serotypes 3 4 5 9 16 18 38 66 75 67 | cytopathic effect | 0.1 µg/mL
COc1cc(/C=C/C(=O)Oc2c(-c3ccc(Cl)cc3)oc3ccccc3c2=O)ccc1O | Serotype 1B | plaque count | 3.6 µM